Measured data: PubChem BioAssay AID624099 (ICCB-Longwood, 2012)
Screen: 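Host factors E2 relies on to silence an HPV18 LCR reporter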 (primary screen). Cells: human C33A cervical carcinoma cells (HPV-negative) stably expressing BPV1 E2 and an HPV18 LCR luciferase reporter. Knock-down reagent: siRNA pool against human genes, 40 nM. Timing: 72 h. Detection: 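Per-well luciferase luminescence, z-scored on each plate against the plate mean and SD with control wells left out, then averaged across three replicate plates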. Reading the numbers: mean z-score and z-score: higher = stronger reporter signal, weaker E2 silencing. Hit rule: 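Hit if mean z-score reaches 2 and two or more of three replicate z-scores also reach 2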.
In all, the deposit lists about 21,000 reagents; shown is a random part of them. 497 of them (2.4%) count as active. 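Higher z means weaker E2 silencing; only reporter increases were scored, and knock-downs that hurt cell survival may mask genuine repressor factors.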 The numbers tell different reagents against one gene apart.

no.	Gene	reagent	mean z-score	z-score, replicate A	z-score, replicate B	z-score, replicate C	Outcome
1	PDLIM2	1	0.15	0.25	-0.01	0.22	inactive
2	ZNF415	1	-1.5	-1.52	-1.47	-1.51	inactive
3	OPN1MW	1	1	0.96	0.84	1.18	inactive
4	SLC4A1	1	-0.95	-0.97	-0.83	-1.05	inactive
5	FAM218A	1	1.91	1.55	1.83	2.36	inactive
6	FAM3B	1	-0.12	0.1	-0.08	-0.37	inactive
7	BPIFB6	1	-0.96	-0.88	-0.92	-1.07	inactive
8	CDH6	1	-0.39	-0.66	-0.2	-0.32	inactive
9	OR1N1	1	0.99	0.68	1.08	1.22	inactive
10	ANXA11	1	-0.79	-1.47	-0.69	-0.22	inactive
11	SSX7	1	1.29	1.71	1.11	1.06	inactive
12	B3GALT5-AS1	1	-0.81	-0.63	-0.86	-0.93	inactive
13	ZBTB38	1	1.28	1.63	1.04	1.18	inactive
14	GTF2IRD1	1	-1.5	-1.52	-1.64	-1.34	inactive
15	ALOX12B	1	-1.23	-1.36	-1.17	-1.16	inactive
16	DCHS1	1	-0.19	-0.56	0.06	-0.06	inactive
17	CNKSR3	1	-0.42	0.07	-0.55	-0.77	inactive
18	FAM167A	1	-0.23	-0.22	-0.16	-0.29	inactive
19	IRAK3	1	0.33	0.05	0.34	0.61	inactive
20	LOC90462 (retired record)	1	0.38	0.27	0.16	0.73	inactive
21	PROX2	1	0.3	0.01	0.61	0.27	inactive
22	SLC1A5	1	0.02	0.02	0.16	-0.12	inactive
23	PCDHGC3	1	-0.92	-0.95	-0.63	-1.18	inactive
24	CLDN17	1	0.82	0.99	0.56	0.93	inactive
25	ZNF766	1	0.03	0.06	0.27	-0.25	inactive
26	SPAG9	1	0.79	0.55	0.82	1	inactive
27	RTL5	1	0.06	0.16	-0.03	0.04	inactive
28	FRAS1	1	-0.27	-0.05	-0.52	-0.23	inactive
29	AGPAT3	1	0.02	0.1	-0.28	0.24	inactive
30	TMEM17	1	-0.61	-0.82	-0.55	-0.48	inactive
31	SUPT16H	1	-0.05	-0.18	0.12	-0.1	inactive
32	TRIM4	1	-0.43	-0.6	-0.33	-0.37	inactive
33	VPS29	1	-0.34	-0.33	-0.23	-0.46	inactive
34	XPO1	1	-1.28	-1.24	-1.27	-1.33	inactive
35	CITED4	1	-0.7	-0.8	-0.58	-0.73	inactive
36	AKAP14	1	-0.07	-0.08	-0.08	-0.04	inactive
37	NTRK2	1	-0.34	-0.64	-0.29	-0.08	inactive
38	RPL36	1	-4.28	-4.08	-4.41	-4.35	inactive
39	IGHV1OR15-1	1	-0.91	-1.05	-0.64	-1.03	inactive
40	HSCB	1	-0.34	-0.08	-0.65	-0.31	inactive
41	TGFB2	1	-0.36	0.02	-0.47	-0.63	inactive
42	LRRN4	1	0.28	0.15	0.36	0.34	inactive
43	TCAF1	1	-0.42	-0.38	-0.53	-0.36	inactive
44	HERC1	1	-0.29	-0.68	-0.1	-0.09	inactive
45	RAB13	1	0.14	0.29	0.01	0.13	inactive
46	EIF4E	1	1.4	1.52	1.41	1.28	inactive
47	HOXC11	1	1.08	1.06	1.14	1.03	inactive
48	TYSND1	1	-1.63	-1.63	-1.36	-1.9	inactive
49	ALG2	1	-0.31	-0.37	-0.24	-0.33	inactive
50	NSMCE1-DT	1	-1.17	-0.93	-1.24	-1.33	inactive
51	NBPF9	1	-0.4	-0.31	-0.74	-0.15	inactive
52	CNTNAP3B	1	2.13	2.08	2.06	2.26	active
53	CNTNAP3B	2	2.23	2.55	2.22	1.91	active
54	CFAP144P1	1	0.03	0.06	0.02	0	inactive
55	CFAP144P1	2	0.05	0.06	0.32	-0.23	inactive
56	ANGPTL1	1	-0.26	-0.25	-0.18	-0.36	inactive
57	IQSEC2	1	0.01	-0.29	0.14	0.19	inactive

An excerpt from the list above:
no.	Gene	reagent	mean z-score	z-score, replicate A	z-score, replicate B	z-score, replicate C	Outcome
27	RTL5	1	0.06	0.16	-0.03	0.04	inactive
28	FRAS1	1	-0.27	-0.05	-0.52	-0.23	inactive
29	AGPAT3	1	0.02	0.1	-0.28	0.24	inactive
30	TMEM17	1	-0.61	-0.82	-0.55	-0.48	inactive
31	SUPT16H	1	-0.05	-0.18	0.12	-0.1	inactive
32	TRIM4	1	-0.43	-0.6	-0.33	-0.37	inactive
33	VPS29	1	-0.34	-0.33	-0.23	-0.46	inactive
